A mixed list of measured activities; the numbers were collected in NIAID ChemDB.

Shared fields: tests on isolated targets; organism: HIV-1; protein: Reverse transcriptase; read by: nucleotide incorporation / radiometric; read-out: IC50

Conditions beyond the fields shown may differ between rows. ICn is the concentration giving n% inhibition. Two numbers with a dash give a range or band. An empty or dashed field is not shown.

compound	changes	strain	value
CCN1c2ncc(CCOc3cccc4c3CCCN4CC(=O)O)cc2C(=O)N(C)c2cccnc21	RT-Y188L		>1 µM
Nc1ccn([C@H]2CC[C@@H](COP(=O)(O)OP(=O)(O)OP(=O)(O)O)O2)c(=O)n1	RT-V106A		3.23 µM
CCN1c2ncc(COc3ccncc3)cc2C(=O)N(C)c2ccc(F)nc21		WT	<1 µM
Cc1cc(C)c(-n2nnnc2SCC(=O)Nc2ccc(Cl)nc2Cl)c(C)c1			<2 µM
OCc1cn(Cc2ccncc2)c(Sc2cc(Cl)cc(Cl)c2)c1C1CCC1	RT-L100I		1.16 µM
CCN1c2ncc(CSc3ncnc4[nH]ncc34)cc2C(=O)N(C)c2ccc(Cl)nc21	RT-Y181C		<1 µM
Cc1c(Cc2c(F)cccc2F)nc(N(C)C)[nH]c1=O	RT-K103N	IIIB	10 µM
Cc1cc(C)c(-n2nnnc2SCC(=O)Nc2ccc([N+](=O)[O-])cc2Cl)c(C)c1			<2 µM
Cc1cn([C@H]2C=C[C@@H](OCP(=O)(O)OP(=O)(O)OP(=O)(O)O)O2)c(=O)[nH]c1=O			0.39 µM
CCN1c2ncc(OCc3ccccc3)cc2C(=O)N(C)c2ccc(Cl)nc21		WT	>1 µM
CCN1c2ncc(CCOc3ccc(S(N)(=O)=O)c4ccccc34)cc2C(=O)N(C)c2cccnc21	RT-Y188L		0.1–1 µM
CCOc1cccc(C2(CC)Oc3ccccc3-n3cccc3C2=O)c1		WT	0.76 µM
CCN1c2ncc(CCOc3ccc(/C(C)=C/C(=O)O)c4ccccc34)cc2C(=O)N(C)c2cccnc21	RT-V106A		>1 µM
C=C(CC[C@@H](C)[C@H]1CC[C@@]2(C)[C@@H]3CC[C@H]4[C@](C)(C(=O)O)[C@@H](O)CC[C@@]45C[C@@]35CC[C@]12C)C(C)C			43.5 µg/mL
CC(Sc1nnnn1-c1cccc2ccccc12)C(=O)Nc1ccccc1Cl			<2 µM
CCN1c2ncc(CCOc3ccc(/C=C(\C)C(=O)O)c4ccccc34)cc2C(=O)Nc2c(C)cc(F)nc21		WT	<0.1 µM
CC(C)=CC(=O)C[C@@H](C)[C@H]1CC[C@@]2(C)[C@@H]3CC[C@H]4[C@](C)(C(=O)O)[C@@H](O)CC[C@@]45C[C@@]35CC[C@]12C			<22.5 µg/mL
Cc1c(Cc2c(Cl)cccc2Cl)nc(SCc2ccc(C(C)C)cc2)[nH]c1=O		WT	>400 µM
CCN1c2ncc(CCOc3ccc(CC(N)=O)c4ccccc34)cc2C(=O)N(C)c2cccnc21		WT	<0.1 µM
OCc1cn(Cc2ccncc2)c(Sc2cc(Cl)cc(Cl)c2)c1C1CCCCC1			38.2 µM
COc1ccc(CSc2nc(Cc3ccc(F)cc3)c(C)c(=O)[nH]2)cc1	RT-K103N		>400 µM
CNc1nc(Cc2c(F)cccc2F)cc(=O)[nH]1			2.5 µM
Cc1c(Cc2c(Cl)cccc2Cl)nc(SCc2ccc(Br)cc2)[nH]c1=O	RT-181I		>400 µM
CCN1c2ncc(COc3cc[n+]([O-])cc3)cc2C(=O)N(C)c2ccc(Cl)nc21	RT-Y181C		>1 µM
O=C(CSc1nnnn1-c1cccc2ccccc12)Nc1ccccc1F			<2 µM
CC(O)C\C=C/C=C\C=C\CCCCCCc1cccc(O)c1O			78.1 µM
CC(C)=CC(=O)C[C@@H](C)[C@H]1CC[C@@]2(C)[C@@H]3CC[C@H]4C(C)(C)[C@@H](O)C[C@H](O)[C@@]45C[C@@]35CC[C@]12C			156.8 µg/mL
Cc1cc(C)cc(S(=O)(=O)c2c(C(=O)NNCCO)[nH]c3ccc(Cl)cc23)c1			0.06 µM
Cc1cn([C@H]2CC[C@@H](COP(=O)(O)OP(=O)(O)OP(=O)(O)O)O2)c(=O)[nH]c1=O	RT-E138K		0.1 µM
Cc1c(Cc2c(Cl)cccc2Cl)nc(SCc2ccc(F)cc2)[nH]c1=O	RT-181I		>400 µM
CCN1c2ncc(CCOc3ccc(CCC(=O)NN)c4ccccc34)cc2C(=O)N(C)c2cccnc21	RT-K103N Y181C		0.1–1 µM
NC(=O)OCc1cn(Cc2ccncc2)c(Sc2cc(Cl)cc(Cl)c2)c1C1CCC1	RT-K103N		75.5 µM
CCN1c2ncc(CCOc3ccc(C(=O)O)c4ccccc34)cc2C(=O)N(C)c2cccnc21	RT-V106A		>1 µM
Cc1c(C(C)c2c(F)cccc2F)nc(SC2CCCC2)[nH]c1=O	RT-V106A		0.5 µM
CCN1c2ncc(CCc3ccccc3)cc2C(=O)Nc2c1nc(Cl)c(Br)c2C		WT	>1 µM
Cc1cn([C@H]2C=C[C@@H](COP(=O)(O)OP(=O)(O)OP(=O)(O)O)O2)c(=O)[nH]c1=O		WT	0.05 µM
CCC1(c2ccc(I)cc2)Oc2ccccc2-n2cccc2C1=O		WT	1.2 µM
CCN1c2ncc(COc3cc[n+]([O-])cc3)cc2C(=O)N(C)c2cccnc21		WT	<1 µM
C/C=C\C=C\C/C=C\CCCCCCCc1cccc(O)c1O			56.84 µM
Cc1ncc([N+](=O)[O-])n1CCSC(c1ccccc1)c1ccccc1		WT	10.64 µM
CCN1c2ncc(CCO)cc2C(=O)N(C)c2ccc(Cl)nc21		WT	<1 µM
CCOc1ccc(CSc2nc(Cc3c(Cl)cccc3Cl)c(C)c(=O)[nH]2)cc1	RT-181I		>400 µM
Cc1c(C(C)c2c(F)cccc2F)nc(N2CCOCC2)[nH]c1=O	RT-Y181I	IIIB	>20 µM
CCC1(c2ccc(COc3cccnc3)cc2)Oc2ccccc2-n2cccc2C1=O	RT-V106A		2.5 µM
Cc1cn([C@H]2C=C[C@@H](COP(=O)(O)OP(=O)(O)OP(=O)(O)O)O2)c(=O)[nH]c1=O			0.06 µM
CCC1(c2cccc(I)c2)Oc2ccccc2-n2cccc2C1=O	RT-L100I		>10 µM
Cc1cc(C)c(-n2nnnc2SCC(=O)Nc2ccc(C)cc2Cl)c(C)c1			<2 µM
CCOC(=O)c1cn(Cc2ccncc2)c(Sc2cc(Cl)cc(Cl)c2)c1C1CCCCC1			0.61 µM
CCN1c2ncc(CCOc3ccc(CCC(=O)O)c4ccccc34)cc2C(=O)N(C)c2ccc(C)nc21	RT-K103N Y181C		0.1–1 µM
C[C@H](Cn1cnc2c(N)ncnc21)OCP(=O)(O)OP(=O)(O)OP(=O)(O)O			0.38 µM
Nc1nc2c(ncn2[C@H]2CC[C@@H](COP(=O)(O)OP(=O)(O)OP(=O)(O)O)O2)c(=O)[nH]1	RT-V106A		0.16 µM
CCC1(c2ccc(/C=C/c3ccccc3)cc2)Oc2ccccc2-n2cccc2C1=O		WT	>100 µM

The last 7 rows once more:

compound,changes,strain,value
CCC1(c2cccc(I)c2)Oc2ccccc2-n2cccc2C1=O,RT-L100I,,>10 µM
Cc1cc(C)c(-n2nnnc2SCC(=O)Nc2ccc(C)cc2Cl)c(C)c1,,,<2 µM
CCOC(=O)c1cn(Cc2ccncc2)c(Sc2cc(Cl)cc(Cl)c2)c1C1CCCCC1,,,0.61 µM
CCN1c2ncc(CCOc3ccc(CCC(=O)O)c4ccccc34)cc2C(=O)N(C)c2ccc(C)nc21,RT-K103N Y181C,,0.1–1 µM
C[C@H](Cn1cnc2c(N)ncnc21)OCP(=O)(O)OP(=O)(O)OP(=O)(O)O,,,0.38 µM
Nc1nc2c(ncn2[C@H]2CC[C@@H](COP(=O)(O)OP(=O)(O)OP(=O)(O)O)O2)c(=O)[nH]1,RT-V106A,,0.16 µM
CCC1(c2ccc(/C=C/c3ccccc3)cc2)Oc2ccccc2-n2cccc2C1=O,,WT,>100 µM